Results deposited as PubChem BioAssay AID1259414 (Drosophila RNAi Screening Center, 2018)
Purpose: 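Genome-wide screen for host control of endosymbiont load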 (primary screen). Cell system: Drosophila JW18 cells infected with Wolbachia. Reagent: long dsRNA against Drosophila genes, 0.25 µg dsRNA per well of a 384-well plate. Timing: 5 days. Treatment: cells persistently infected with Wolbachia before knock-down; no added drug. Measurement: 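Automated imaging of bacterial rRNA staining divided by host cell count, reported as plate-normalised robust z-score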. Direction: Wolbachia per cell robust z: higher = more Wolbachia per host cell than the plate typical. Call rule: 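Hit when robust z is 1.5 or more, or -1.5 or less, in at least two of three replicates; excludes dsRNAs with several or no targets, genes not expressed in JW18 and well A1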.
The screen tested about 24,000 reagents; this is a random part of those that have a named target and a result. Of all reagents, about 1,210 (5%) are marked active. 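Inactive calls also include excluded dsRNAs with several or no targets, genes unexpressed in JW18, and well A1, regardless of score.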 Entries without a mark were called inactive. Names joined by + are all predicted targets of the reagent.

Knock-down of CG7341 [SID104190610] gave: Wolbachia per cell robust z, rep 1 = -0.635; Wolbachia per cell robust z, rep 2 = 0.288; Wolbachia per cell robust z, rep 3 = -0.5.
With knock-down of CG7778 [SID104182859], the record shows Wolbachia per cell robust z, rep 1 = 0.0316; Wolbachia per cell robust z, rep 2 = -0.241; Wolbachia per cell robust z, rep 3 = 0.145.
CG7778 [SID104205857] scored Wolbachia per cell robust z, rep 1 = -2.69; Wolbachia per cell robust z, rep 2 = -1.15; Wolbachia per cell robust z, rep 3 = 0.541.
Against Ppa [SID104184390] the deposit lists Wolbachia per cell robust z, rep 1 = 1.07; Wolbachia per cell robust z, rep 2 = 0.551; Wolbachia per cell robust z, rep 3 = 0.173.
After knock-down of Ppa [SID104207244], the record shows Wolbachia per cell robust z, rep 1 = -3.88; Wolbachia per cell robust z, rep 2 = -0.417; Wolbachia per cell robust z, rep 3 = 0.0216.
Knock-down of CG18131 [SID104202340] resulted in: Wolbachia per cell robust z, rep 1 = -0.933; Wolbachia per cell robust z, rep 2 = -1.56; Wolbachia per cell robust z, rep 3 = -3.67.
CG5002 [SID104186703] scored Wolbachia per cell robust z, rep 1 = 0.0622; Wolbachia per cell robust z, rep 2 = 0.122; Wolbachia per cell robust z, rep 3 = -0.681.
After knock-down of ps [SID104194941], the screen gave Wolbachia per cell robust z, rep 1 = -4.94; Wolbachia per cell robust z, rep 2 = 0.544; Wolbachia per cell robust z, rep 3 = 0.431.
Silencing of ps [SID104196180] gave: Wolbachia per cell robust z, rep 1 = 1.15; Wolbachia per cell robust z, rep 2 = 1.44; Wolbachia per cell robust z, rep 3 = -0.0438.
Silencing of ps [SID104202346] resulted in: Wolbachia per cell robust z, rep 1 = -1.42; Wolbachia per cell robust z, rep 2 = -0.556; Wolbachia per cell robust z, rep 3 = -4.06.
ps [SID104207859] scored Wolbachia per cell robust z, rep 1 = -4.5; Wolbachia per cell robust z, rep 2 = -2.92; Wolbachia per cell robust z, rep 3 = -4.71.
ps [SID104208118] showed Wolbachia per cell robust z, rep 1 = -0.829; Wolbachia per cell robust z, rep 2 = -1.44; Wolbachia per cell robust z, rep 3 = -0.558.
Silencing of CG7646 [SID104191024] came out at: Wolbachia per cell robust z, rep 1 = 0.637; Wolbachia per cell robust z, rep 2 = -1.14; Wolbachia per cell robust z, rep 3 = -0.864.

Only “Wolbachia per cell robust z, rep 1” (4 entries from above):
ps [SID104202346]: -1.42
ps [SID104207859]: -4.5
ps [SID104208118]: -0.829
CG7646 [SID104191024]: 0.637

The list goes on:
With knock-down of kek3 [SID104183345] the results were Wolbachia per cell robust z, rep 1 = -5.19; Wolbachia per cell robust z, rep 2 = -1.61; Wolbachia per cell robust z, rep 3 = 0.322.
kek3 [SID104202189] gave Wolbachia per cell robust z, rep 1 = 0.524; Wolbachia per cell robust z, rep 2 = 0.0115; Wolbachia per cell robust z, rep 3 = 0.993.
Against kek3 [SID104203100], the values are Wolbachia per cell robust z, rep 1 = 1.04; Wolbachia per cell robust z, rep 2 = -0.184; Wolbachia per cell robust z, rep 3 = -0.412.
With knock-down of CG33995 + CG44001 + CG44000 [SID104180645] the results were Wolbachia per cell robust z, rep 1 = 0.801; Wolbachia per cell robust z, rep 2 = 0.553; Wolbachia per cell robust z, rep 3 = 0.612.
For tn [SID104185560] the deposit lists Wolbachia per cell robust z, rep 1 = -1.34; Wolbachia per cell robust z, rep 2 = 0.507; Wolbachia per cell robust z, rep 3 = 0.663.
tn [SID104186324] gave Wolbachia per cell robust z, rep 1 = -0.061; Wolbachia per cell robust z, rep 2 = -4.11; Wolbachia per cell robust z, rep 3 = -0.205.
For tn [SID104206255], the entry reads Wolbachia per cell robust z, rep 1 = -0.512; Wolbachia per cell robust z, rep 2 = 0.226; Wolbachia per cell robust z, rep 3 = 0.196.
With knock-down of CG13707 [SID104188108] the results were Wolbachia per cell robust z, rep 1 = 0.897; Wolbachia per cell robust z, rep 2 = 0.119; Wolbachia per cell robust z, rep 3 = -3.25.
rempA [SID104180119] showed Wolbachia per cell robust z, rep 1 = -0.246; Wolbachia per cell robust z, rep 2 = 1.72; Wolbachia per cell robust z, rep 3 = 0.479.
Against HDAC11 [SID104194072], the entry reads Wolbachia per cell robust z, rep 1 = -1.1; Wolbachia per cell robust z, rep 2 = -0.125; Wolbachia per cell robust z, rep 3 = -1.72.
After knock-down of HDAC11 [SID104205386] the results were Wolbachia per cell robust z, rep 1 = 0.558; Wolbachia per cell robust z, rep 2 = 0.315; Wolbachia per cell robust z, rep 3 = 0.509.
